Anti-infective test results gathered from many reports (values: NIAID ChemDB through PubChem).

Common to all: tests in culture; species: Mycobacterium tuberculosis

Blank or dashed fields: not listed here. Inhibition is in % at the dose shown (toxicity tests: loss of growth or viability). MIC bound: limit read from a one-dose screen. ECn is the concentration giving n% inhibition of infection, replication or growth. Conditions beyond the fields shown may differ between rows. MIC50, MIC90 and the like: level of inhibition, or share of isolates inhibited.

structure,read-out,method,strain or isolate,mutations,dose,conditions,value
CC(=O)Oc1c(C/C=C(\C)CC/C=C(\C)CCC=C(C)C)c(=O)oc2ccccc12,EC50,,H37Rv,,,,>12.5 µg/mL
O=C(/C=C/C(=O)c1ccccc1)NC[C@H]1CN(c2ccc(N3CCOCC3)c(F)c2)C(=O)O1,MIC,,10 clinical isolates sensitive,,,,>16 µg/mL
O=[N+]([O-])c1cc2cccnc2c2ncccc12,MIC bound,BACTEC,H37Rv,,,,≤12.5 µg/mL
O=[N+]([O-])[O][Ga]([O][N+](=O)[O-])[O][N+](=O)[O-],inhibition,,H37Ra,,500 µM,,95%
Cc1ccc2nc(SCc3ccc([N+](=O)[O-])cc3[N+](=O)[O-])[nH]c2c1,MIC,,MY 332/88,,,,8 µM
Fc1ccc2oc(=S)n(-c3cccc(Cl)c3)c(=S)c2c1,MIC,,My 331/88,,,14 d,2 µM
NC(=S)N/N=C/c1nc2c3cccnc3ccc2n1Cc1ccccc1,MIC,BACTEC,H37Rv,,,,≥12.5 µg/mL
O=C(Nc1nc(-c2ccccn2)cs1)C1=CC=C(Br)C1,MIC100,,H37Rv,,,,>32 µg/mL
CC1(C)O[C@H]2[C@@H](O1)[C@@H](COCC(C[N+]1=NC([N+](=O)[O-])N=C1)OCc1ccc(OC(F)(F)F)cc1)O[C@@H]1OC(C)(C)O[C@@H]12,MIC,agar,H37Rv,,,,6.25 µg/mL
CCO/N=C1/C(=O)N(CCOCCOCCOCCN2C(=O)C(=O)c3cc(F)ccc32)c2ccc(C)cc21,MIC,visual reading,,MDR,,,256 µg/mL
Cn1c(=O)c2nc3c(=O)n(C)c(=O)n(CC(N)=O)c3nc2n(C)c1=O,MIC bound,BACTEC,H37Rv,,,,>12.5 µg/mL
CC1=CC(=O)c2c(O)cccc2C1=O,EC50,,H37Rv,,,,>12.5 µg/mL
CCCCCc1cc(/C=C2/N=C(c3ccc[nH]3)C=C2OC)[nH]c1C,MIC,,ETA-R,,,,1.6 µg/mL
CC1COc2c(N3CCN(C)CC3)c(F)cc3c(=O)c(C(=O)O)cn1c23,MIC,,001-011 (drug-resistant),,,,0.75 µg/mL
CC1(C)O[C@H]2[C@@H](O1)[C@@H](COCC(Cn1cnc([N+](=O)[O-])c1)OCc1ccc(OC(F)(F)F)cc1)O[C@@H]1OC(C)(C)O[C@@H]12,MIC,agar,H37Rv,,,,3.13 µg/mL
O=C(Nc1ccc(Cl)c(Cl)c1)c1ccccc1O,MIC,,CNCTC MY 331/8,,,,28 µM
O=C1C2C3C=CC(O3)C2C(=O)N1Nc1ccccc1,inhibition,BACTEC,H37Rv,,12.5 µg/mL,,-11%
O=C(COC(=O)c1cccc(S(=O)(=O)N2CCc3ccccc32)c1)NNC(=O)c1cccs1,MIC100,,H37Rv,,,,2 µg/mL
Cc1ccc(-n2c(=O)oc3ccc(C)cc3c2=S)cc1,MIC,,My 331/88,,,21 d,1 µM
OCCNc1nc(Nc2ccc(F)cc2)nc2ccccc12,MIC100,,H37Rv,,,,>32 µg/mL
CC(=O)Nc1ccc(/C=N/NC(N)=S)cc1,MBC,,ATCC 27294,,,,30 µg/mL
C/C=C/C=C1\OC(C)=C(C(=O)OCC)C1=O,inhibition,BACTEC,H37Rv,,12.5 µg/mL,,2%
CO/N=C1/C(=O)N(CCOCCOCCOCCn2c(O)c(N=NC(N)=O)c3cc(F)ccc32)c2ccc(F)cc21,MIC,visual reading,,MDR,,,16 µg/mL
O=c1oc2ccc(F)cc2c(=S)n1-c1cccc(Cl)c1,MIC,,My 331/88,,,14 d,2 µM
O=C1c2cc(F)ccc2-n2c1nc1nccnc1c2=O,MIC,,MDR 10038,,,,10 µg/mL
CC(=O)Nc1ccc(/C=N/NC(N)=S)cc1F,MBC,,Isoniazid-resistant,,,,>62.5 µg/mL
CCCCCCCCCCCCCCCC(=O)OC(COC[C@H]1O[C@@H]2OC(C)(C)O[C@@H]2[C@H]2OC(C)(C)O[C@H]21)Cn1cnc([N+](=O)[O-])c1,MIC,agar,H37Rv,,,,>12.5 µg/mL
COc1ccc(NC(=O)c2ncccc2O)cc1,MIC,,CNCTC MY 331/8,,,,125 µM
COc1cccc2c(Nc3ccc(S(=O)(=O)Nc4ccnn4-c4ccccc4)cc3)ccnc12,MIC,,Strain 1 (MDR),,,,2 µg/mL
COC(=O)c1cc(F)c(NC(C)=O)cc1O,MIC,,,,,,>12.5 µg/mL
CCC1OC(=O)C(C)C(OC2CC(C)(O)C(O)C(C)O2)C(C)C(O)C(C)(O)CC(C)C(=O)C(C)C(O)C1C,MIC bound,BACTEC,H37Rv,,,,>12.5 µg/mL
N[C@@H]1CN(c2c(F)cc3c(=O)c(C(=O)O)cn([C@@H]4C[C@@H]4F)c3c2Cl)CC12CC2,MIC90,,25 strains,,,,0.2 µg/mL
O=C(Nc1cccc(F)c1)c1ccccc1O,MIC,,CNCTC MY 331/8,,,,31 µM
CN(C)c1ccc(/C=N/NC(=S)Nc2ccccc2)c(Cl)c1,inhibition,BACTEC,H37Rv,,12.5 µg/mL,,11%
CCCCCCCCCCCCCCCOC(COC[C@H]1O[C@@H]2OC(C)(C)O[C@@H]2[C@H]2OC(C)(C)O[C@H]21)Cn1cnc([N+](=O)[O-])c1,MIC,agar,H37Rv,,,,3.13 µg/mL
CO/N=C1/C(=O)N(CCOCCOCCOCCn2c(O)c(N=O)c3cc(F)ccc32)c2ccc(F)cc21,MIC,visual reading,H37Rv,,,,256 µg/mL
Cc1ccc2nc(SCc3cccc(C(N)=S)c3)[nH]c2c1,MIC,,MY 332/88,,,,32 µM
O=C(NCc1ccc(Br)cc1)c1ncccc1S,MIC,,CNCTC MY 331/8,,,,8 µM
CN1CCN(c2c(F)cc3c(c2F)-n2c(nc4ccccc4c2=O)C3=O)CC1,MIC,,MDR 10038,,,,>5 µg/mL
CCO/N=C1/C(=O)N(CCOCCOCCOCCn2c(O)c(N=O)c3ccccc32)c2ccc(C)cc21,MIC,visual reading,H37Rv,,,,128 µg/mL
Fc1ccc(ON2N=C(c3ccc(Cl)cc3)C(n3ccnc3)C2c2ccc(Cl)cc2)cc1,MIC,,H37Rv,,,,4 µg/mL
CCN1CC(c2ccccc2)=NC(C#N)=C1C#N,MIC,broth dilution / visual reading,H37Rv,,,,12.5 µg/mL
O=C(Nc1cccc(Cl)c1)c1ncccc1S,MIC,,CNCTC MY 331/8,,,,32 µM
CCCCN(CCCC)CCNc1ccc(C)c2sc3c(Cl)cccc3c(=O)c12,MIC bound,BACTEC,H37Rv,,,,≤12.5 µg/mL
O=[N+]([O-])c1ccc(-n2cc([N+](=O)[O-])cn2)cc1,MIC,,H37Rv,,,,>6.25 µg/mL
O=C(NNc1cc(-c2ccccc2)nc2ccc(Cl)cc12)c1ccncc1,MIC,,Strain 2 (MDR),,,,2 µg/mL
CO/N=C1/C(=O)N(CCOCCOCCOCCn2c(O)c(N=O)c3ccccc32)c2ccc(C)cc21,MIC,visual reading,,MDR,,,128 µg/mL
NNC(=O)c1ccncc1,MIC,agar,H37Rv,,,,0.05 µg/mL
Cc1ccc2nc(SCc3ccc(F)cc3)[nH]c2c1,MIC,,MY 332/88,,,,32 µM
CC(C)(O)CN1CCN(CC(O)c2ccccc2)CC1,MIC,BACTEC,H37Rv,,,,≥12.8 µg/mL
CCN1C(C#N)=C(C#N)N=C(c2ccsc2)[C@H]1/C=C/c1ccccc1,MIC,broth dilution / visual reading,H37Rv,,,,12.5 µg/mL
O=C(Nc1ccc(C(F)(F)F)cc1)c1ccccc1O,MIC,,CNCTC MY 331/8,,,,8 µM
CC(C)OC(=S)Nc1ccc(Cl)c(COC(C)(C)C)c1,MIC,BACTEC,H37Rv,,,,3.13 µg/mL
CN1CCN(c2cccc3nc4n(c(=O)c23)-c2ccc(F)cc2C4=O)CC1,MIC,,MDR 10038,,,,5 µg/mL
COc1ccc2oc(=O)n(-c3cccc(Cl)c3)c(=S)c2c1,MIC,,My 331/88,,,21 d,32 µM
O=C(CCC(=O)c1ccc(Cl)cc1)NC[C@H]1CN(c2ccc(-n3cncn3)c(F)c2)C(=O)O1,MIC,,ATCC 27294,,,,4 µg/mL
O=C(NCc1ccc(F)cc1)c1ncccc1O,MIC,,CNCTC MY 331/8,,,,500 µM
O=C(CCC(=O)c1ccc(F)cc1F)NC[C@H]1CN(c2ccc(-n3cncn3)c(F)c2)C(=O)O1,MIC,,ATCC 27294,,,,8 µg/mL
CCO/N=C1\C(=O)N(CCOCCOCCOCCN2C(=O)/C(=N/OC)c3cc(F)ccc32)c2ccc(F)cc21,MIC,visual reading,,MDR,,,128 µg/mL
O=C(Nc1ccccc1)c1ccccc1O,MIC,,CNCTC MY 331/8,,,,62.5 µM
C=C1C(=O)O[C@@H]2C[C@@]3(C)CCCC(=C)[C@@H]3C[C@H]12,inhibition,resazurin,H37Rv,,6.25 µg/mL,,1%
Cc1cccc2c(=O)n3c(nc12)C(=O)c1cc(F)ccc1-3,MIC,,MDR 10038,,,,5 µg/mL
O=[N+]([O-])c1ccc(C2=CSC3=NCCN23)cc1,MIC bound,resazurin,H37Rv,,,,>6.25 µg/mL
CO/N=C1/C(=O)N(CCOCCOCCOCCN2C(=O)C(=O)c3cc(F)ccc32)c2ccc(F)cc21,MIC,visual reading,,MDR,,,64 µg/mL
CCN1C(C#N)=C(C#N)N=C(c2ccsc2)C1/C=C/c1ccc(-c2ccccc2)cc1,MIC,broth dilution / visual reading,H37Rv,,,,12.5 µg/mL
Clc1ccc(C2=NN(Oc3ccccc3)C(c3ccc(Cl)cc3Cl)C2n2ccnc2)c(Cl)c1,MIC,,H37Rv,,,,4 µg/mL
Cc1ccc2nc(SCc3cccc(C#N)c3)[nH]c2c1,MIC,,MY 332/88,,,,>62.5 µM
NCC(=O)N/N=C/c1ccc([N+](=O)[O-])o1,MIC,,RMP-R,,,,12.5 µg/mL
CCN1C(C#N)=C(C#N)N=C(c2cccs2)[C@H]1/C=C/c1ccccc1,MIC,broth dilution / visual reading,H37Rv,,,,12.5 µg/mL
CCOC(=O)C1=NN(c2ccccc2)C(=O)C1N=Nc1c(Br)cc(S(N)(=O)=O)cc1Br,inhibition,BACTEC,H37Rv,,12.5 µg/mL,,19%
O=C1c2cccc(F)c2-n2c1nc1ccccc1c2=O,MIC,,H37Rv,,,,1 µg/mL
COc1ccc2nc(-c3ccccc3)cc(Nc3cccc(O)c3)c2c1,MIC,,Strain 1 (MDR),,,,>1 µg/mL
CN[C@@H]1[C@H](O[C@H]2[C@H](O[C@H]3[C@H](O)[C@@H](O)[C@H](N=C(N)N)[C@@H](O)[C@@H]3N=C(N)N)O[C@@H](C)[C@]2(O)C=O)O[C@@H](CO)[C@H](O)[C@H]1O,MIC,resazurin,H37Rv,,,,6 µM
NC(=O)c1cnccn1,MIC,,Isolate 97-58,,,,900 µg/mL
CC(C)C1COC(c2ccc3ccccc3c2-c2c(O[Si](C)(C)C(C)(C)C)ccc3ccccc23)=N1,MIC bound,BACTEC,H37Rv,,,,>12.5 µg/mL
O=[N+]([O-])c1ccc(-n2cnc([N+](=O)[O-])n2)cc1,inhibition,,H37Rv,,6.25 µg/mL,,7%
CSC(=S)N/N=C/c1cccn1C,MIC bound,BACTEC,H37Rv,,,,≤128 µg/mL
O=C(CCC(=O)c1cccs1)NC[C@H]1CN(c2ccc(-n3cncn3)c(F)c2)C(=O)O1,MIC,,ATCC 27294,,,,1 µg/mL
NC(=O)c1c(Cl)nc(-c2cccc([N+](=O)[O-])c2)c([N+](=O)[O-])c1C(F)(F)F,inhibition,BACTEC,H37Rv,,12.5 µg/mL,,-5%
Cc1nc([N+](=O)[O-])cn1-c1ccc(Br)cc1,MIC,,H37Rv,,,,>6.25 µg/mL
COc1cc(C(O)C2C(=O)OCC2C2(c3ccc4c(c3)OCO4)SCCCS2)cc(OC)c1OC,MIC bound,BACTEC,H37Rv,,,,>12.5 µg/mL
Nc1cccc(O)c1,MIC,,Strain 2 (MDR),,,,0.25 µg/mL
COc1ncc(Br)cc1C(=O)NCCc1ccc(S(=O)(=O)[N-]C(=O)NC2CCCCC2)cc1.[Na+],MIC bound,BACTEC,H37Rv,,,,>12.5 µg/mL
COc1cccc2c(NNC(=O)c3ccncc3)cc(-c3ccccc3)nc12,MIC,,Strain 1 (MDR),,,,9 µg/mL

For reference, 12 entries again:

structure	read-out	method	strain or isolate	mutations	dose	conditions	value
CCCCN(CCCC)CCNc1ccc(C)c2sc3c(Cl)cccc3c(=O)c12	MIC bound	BACTEC	H37Rv				≤12.5 µg/mL
O=C(Nc1ccccc1)c1ccccc1O	MIC		CNCTC MY 331/8				62.5 µM
Cc1ccc2nc(SCc3ccc(F)cc3)[nH]c2c1	MIC		MY 332/88				32 µM
CCO/N=C1/C(=O)N(CCOCCOCCOCCN2C(=O)C(=O)c3cc(F)ccc32)c2ccc(C)cc21	MIC	visual reading		MDR			256 µg/mL
COC(=O)c1cc(F)c(NC(C)=O)cc1O	MIC						>12.5 µg/mL
O=C(CCC(=O)c1cccs1)NC[C@H]1CN(c2ccc(-n3cncn3)c(F)c2)C(=O)O1	MIC		ATCC 27294				1 µg/mL
COc1cccc2c(NNC(=O)c3ccncc3)cc(-c3ccccc3)nc12	MIC		Strain 1 (MDR)				9 µg/mL
Cc1ccc(-n2c(=O)oc3ccc(C)cc3c2=S)cc1	MIC		My 331/88			21 d	1 µM
O=C(Nc1ccc(C(F)(F)F)cc1)c1ccccc1O	MIC		CNCTC MY 331/8				8 µM
CC(C)(O)CN1CCN(CC(O)c2ccccc2)CC1	MIC	BACTEC	H37Rv				≥12.8 µg/mL
CN(C)c1ccc(/C=N/NC(=S)Nc2ccccc2)c(Cl)c1	inhibition	BACTEC	H37Rv		12.5 µg/mL		11%
Cc1ccc2nc(SCc3ccc([N+](=O)[O-])cc3[N+](=O)[O-])[nH]c2c1	MIC		MY 332/88				8 µM